In publication PMC10747034 (Tropical Medicine and Infectious Disease, 2023):

System: Toxoplasma gondii tachyzoites of RH strain
Assay: Post-treatment recovery (washout) assay
Type: cell-based
Method: NHDF monolayers in 12-well plates were infected with 5000 newly egressed tachyzoites from RH strain and then treated for 3 days with drug concentrations of 0.001 to 1 µM. After treatment, the medium with drugs was removed, and the cells were washed twice and incubated with a fresh medium without drugs for an additional 7 days to allow the remaining parasites (if still viable after treatment) to grow. The plates were then kept in an incubator at 37 °C in a humid atmosphere with 5% CO2 throughout the treatment.

CCc1nc(N)nc(N)c1C#CC(C)c1cc(OC)cc(-c2ccncc2)c1 (centres unmarked) [MMV1580844]
Times more active than PYR: 100 | Times more active than trimetrexate: 10
